Anti-infective test results gathered from many reports (values: NIAID ChemDB through PubChem).

Shared fields: toxicity to cultured cells; endpoint: CC50

Blank or dashed fields: not listed here. Conditions beyond the fields shown may differ between rows. Two numbers with a dash give a range or band. CCn: concentration that lowers growth or viability of the cells by n%.

structure,read by,cell line,value
C[C@H]1O[C@@H](O[C@H]2CC[C@@]3(C)[C@H](CC[C@@H]4[C@@H]3CC[C@]3(C)[C@@H](C5=CC(=O)OC5)C(O)C[C@]43O)C2)C[C@H](O)[C@@H]1O[C@@H]1O[C@H](CO)[C@@H](O)[C@H](O)[C@H]1O,MTT,GMK AH1,>250 µM
COc1ccc2c(c1)CCCN2CCC(=O)N1CCN(c2ccccn2)CC1,MTT / absorbance,CD4+ T-cell,98.84 µg/mL
N#Cc1cc(NC(=O)[C@H]2CCN(C(=O)C(=O)NC3(c4cn[nH]n4)CC(F)(F)C3)C2)ccc1F,luminescence,HepG2.117,>50 µM
Cc1cc(N/N=C/c2ccccn2)nc2ccccc12,,VERO,>10 µg/mL
CCc1nc2ccc(Cl)cn2c1C(=O)NCc1ccc(N2CCC(c3ccc(OC(F)(F)F)cc3)CC2)cc1,,THP-1 human monocytic cells,>25 µM
C/C(=C\CC[C@@H](C)C1CC[C@@]2(C)[C@@H]3CC[C@H]4C(C)(C)C(=O)CC[C@]4(C)[C@@]3(O)CC[C@]12C)C(=O)O,,P-388,>40 µM
C1CCNC1.S=C(S)N1CCCC1,,VERO,33.9 µg/mL
COc1ccc2c(c1)CCCN2CCC(=O)N1CCN(Cc2ccccc2)CC1,MTT / absorbance,CD4+ T-cell,94.51 µg/mL
[2H]C(O)[C@@]1(C#C)O[C@@H](n2cnc3c(N)nc(F)nc32)C[C@@H]1O,luminescence,MT4-GFP,>42 µM
CC(C)CCn1c(=O)/c(=C2\Nc3ccccc3S(=O)(=O)N2)c(=O)c2cccn21,,HCV Huh-7/C24,>100 µM
O=C1NOCC1N=Cc1cc(Cl)ccc1O,,VERO,39.34 µg/mL
COc1ccc2c(c1)CCCN2CCC(=O)N1CCN(c2ccccc2F)CC1,MTT / absorbance,CD4+ T-cell,82.89 µg/mL
CC1(C)[C@@H](O)CC[C@]2(C)[C@H]3C(=O)C=C4[C@@H]5C[C@@](C)(C(=O)O)CC[C@]5(C)CC[C@@]4(C)[C@]3(C)CC[C@@H]12,WST,Huh7.5,77.4 µg/mL
CC1CCC(c2cc(C(=O)NN)nc3ccccc23)CC1,MTT / absorbance,Mouse fibroblasts,>200 µg/mL
COc1c(CC=C(C)C)c(O)cc2oc(=O)c(-c3ccc(O)cc3O)cc12,WST,Huh7.5,69 µg/mL
CC1(C)[C@@H]2CC[C@@]1(C)[C@H](NC(=O)/C=C/C=C/c1ccc3c(c1)OCO3)C2,MTT,HEK293T,198.9 µM
C[C@H]1c2cccc(O)c2C(O)=C2C(=O)[C@]3(O)C(O)=C(C(N)=O)C(=O)[C@@H](N(C)C)[C@@H]3[C@@H](O)[C@@H]21,,VERO,>10 µM
CC(C)(c1ccccc1)c1ccc(OCCCn2ccnc2)cc1,cell count / luminescence,HepG2,>22.7 µM
C1CCNCC1.S=C(S)N1CCCCC1,,VERO,8.6 µg/mL
COc1ccc2c(c1)S(=O)(=O)N/C(=c1\c(=O)c3cccn3n(CCC(C)C)c1=O)N2,,HCV Huh-7/C24,>100 µM
C/C(=N\NC(=O)c1ccncc1)c1cccc(C(F)(F)F)c1,,VERO,>10 µg/mL
CCCCC#CCSc1ccccc1OC(C)=O,,MDM,100–200 µM
COc1ccc2c(c1)CCCN2CCC(=O)N1CCN(c2ccccc2Cl)CC1,MTT / absorbance,CD4+ T-cell,112 µg/mL
CCN(CC)c1cccc(C2(O)CCN(CCCC(=O)c3ccc(F)cc3)CC2)c1,,COSA5,130 µM
Nc1ncnc2c1c(I)cn2[C@@H]1O[C@H](CO)[C@@H](O)[C@H]1O,XTT,HL-60,6.44 µM
CN(C)CCNc1ccc(C(=O)CCCN2CCC(O)(c3ccc(Cl)cc3)CC2)cc1,,COSA5,60 µM
O=C(O)/C=C/c1ccc(O)cc1,neutral red,RC-37,≥1000 µg/mL
Cc1cc(/C=C/C#N)cc(C)c1Nc1ccnc(Nc2ccc(C#N)cc2)n1,MTT / absorbance,U-937,34 µM
O=S(=O)(NC1CCN(Cc2ccncc2)CC1)c1ccc(-n2cccn2)cc1,,THP-1,32 µM
CC(C)C[C@@H]1NC(=O)[C@H](Cc2c[nH]c3ccccc23)NC(=O)[C@@H](CCCCN)NC(=O)[C@H](CO)NC(=O)[C@H](C(C)C)NC(=O)[C@@H](CC(C)C)NC1=O,MTT,Lung carcinoma cells,>30 µM
COc1ccc(Nc2cc(C)nc3c2ccc2ccccc23)cc1OC,cell count / luminescence,HepG2,6.5 µM
C[C@H]1O[C@@H](O[C@H]2CC[C@@]3(C)[C@H](CC[C@@H]4[C@@H]3C[C@@H](O)[C@]3(C)[C@@H](C5=CC(=O)OC5)CC[C@]43O)C2)C[C@H](O)[C@@H]1O[C@H]1C[C@H](O)[C@H](O[C@H]2C[C@H](O)[C@H](O[C@@H]3C[C@H](CO)[C@@H](O)[C@H](O)[C@H]3O)[C@@H](C)O2)[C@@H](C)O1,MTT,GMK AH1,>250 µM
CC[CH2][Sn]([Br])([Br])[CH2]CC.c1cnc2c(c1)ccc1cccnc12,,VERO,0.25 µg/mL
CCCCC1(CC(=O)OCC)C(=O)N(c2ccccc2)N(c2ccccc2)C1=O,cell count / luminescence,HepG2,26.6 µM
CN(C)CCCNc1ccc(C(=O)CCCN2CCC(O)(c3ccc(Cl)cc3)CC2)cc1,,COSA5,200 µM
O=C(Cc1ccc(Cl)cc1)N/N=C/c1ccc([N+](=O)[O-])s1,,VERO,5.07 µg/mL
COc1ccc(N2CCN(C(=O)CCN3CCCc4cc(OC)ccc43)CC2)cc1,MTT / absorbance,CD4+ T-cell,95.67 µg/mL
N#[N+]c1c([O-])ccc2nc3ccccc3nc12,,VERO,1.7 µg/mL
CN[C@@H]1[C@H](O)[C@H](NC)[C@H]2O[C@@]3(O)C(=O)C[C@@H](C)O[C@H]3O[C@@H]2[C@H]1O,,Vero and J774,>200 µg/mL
CO[C@H]1/C=C/O[C@@]2(C)Oc3c(C)c(O)c4c(O)c(c(/C=N/N5CCN(C)CC5)c(O)c4c3C2=O)NC(=O)/C(C)=C\C=C\[C@H](C)[C@H](O)[C@@H](C)[C@@H](O)[C@@H](C)[C@H](OC(C)=O)[C@@H]1C,MTT,Colorectal carcinoma,>30 µM
C[C@H](CCOc1ccc(-c2ccc(Cl)cc2)cc1)CCN1CCN(c2ccncc2)C1=O,,RD,>25 µM
CN(C)/N=N/c1[nH]cnc1C(N)=O.[Cl][Cu][Cl],,VERO,154.6 µg/mL
COc1ccc2c(c1)CCCN2CCC(=O)N1CCN(c2ccc(Cl)cc2)CC1,MTT / absorbance,CD4+ T-cell,95.82 µg/mL
CO[C@H]1/C=C/O[C@@]2(C)Oc3c(C)c(O)c4c(O)c(c5[nH]c(-c6ccccc6)nc5c4c3C2=O)NC(=O)/C(C)=C\C=C\[C@H](C)[C@H](O)[C@@H](C)[C@@H](O)[C@@H](C)[C@H](OC(C)=O)[C@@H]1C,,VERO,1.14 µg/mL
CC(C)(C)C1CCC(c2cc(C(=O)NN)nc3ccccc23)CC1,MTT / absorbance,Mouse fibroblasts,>200 µg/mL
C/C(=C\C=C\C(C)[C@H]1CC[C@@]2(C)[C@@H]3CC[C@H]4C(C)(C)C(=O)CC[C@]4(C)C3=CC[C@]12C)C(=O)O,sulforhodamine / absorbance,P-388,>50 µM
C[N+](C)(C)CC(=O)N/N=C/c1ccc([N+](=O)[O-])o1,,VERO,63.95 µg/mL
CC(C)=CC[C@H]1C[C@@]2(C[C@H]3CCC(C)(C)C=C3C)C(=O)[C@](C(=O)c3ccccc3)(C(=O)C3=C2OC(C)(C)CC3)C1(C)C,sulforhodamine / absorbance,P-388,14.03 µM
[2H][C@]1(n2ccc3c(N)nc(Cl)nc32)C[C@H](O)[C@@](C#C)(CO)O1,luminescence,MT4-GFP,>42 µM
Cc1cccc(/C=N/Nc2ccccn2)n1,,VERO,0.72 µg/mL
CC1(C)[C@@H](O[C@H]2O[C@H](C(=O)O)[C@@H](O)[C@H](O)[C@H]2O[C@@H]2O[C@H](C(=O)O)[C@@H](O)[C@H](O)[C@H]2O)CC[C@]2(C)[C@H]3C(=O)C=C4[C@@H]5C[C@@](C)(C(=O)O)CC[C@]5(C)CC[C@@]4(C)[C@]3(C)CC[C@@H]12,WST,Huh7.5,690 µg/mL
CCn1c2ccc(N)cc2c2c(N)c(-n3cccc3)ccc21,,VERO,8 µg/mL
CC(=O)O[C@H]1C[C@H](O[C@H]2[C@@H](O)C[C@H](O[C@H]3[C@@H](O)C[C@H](O[C@H]4CC[C@@]5(C)[C@H](CC[C@@H]6[C@@H]5CC[C@]5(C)[C@@H](C7=CC(=O)OC7)CC[C@]65O)C4)O[C@@H]3C)O[C@@H]2C)OC(C)[C@H]1O[C@@H]1O[C@H](CO)[C@@H](O)[C@H](O)[C@H]1O,MTT,GMK AH1,>250 µM
CC(C)C[C@@H]1NC(=O)[C@H](Cc2c[nH]c3ccccc23)NC(=O)[C@@H](CCCCN)NC(=O)CNC(=O)[C@H](C(C)C)NC(=O)[C@@H](CC(C)C)NC1=O,MTT,Colorectal carcinoma,>30 µM
OC(c1ccc(F)cc1)c1cc(C23CC4CC(CC(C4)C2)C3)c2ccccc2n1,MTT / absorbance,Mouse fibroblasts,>200 µg/mL
CCN(CC)CCNc1ccc2nc(C)n3c4ccc(OC)cc4c(=O)c1c23.Cl,,VERO,0.29 µg/mL
C[C@]12CC[C@H]3[C@@H](CC[C@]4(O)C[C@@H](O[C@@H]5O[C@@H](O)[C@H](O)[C@@H](O)[C@H]5O)CC[C@]34C=O)[C@@]1(O)CC[C@@H]2C1=CC(=O)OC1,MTT,GMK AH1,>250 µM
c1ccc(Cc2ccccc2OCCCCn2cccc2)cc1,cell count / luminescence,HepG2,>37.1 µM
CC(C)=CCC[C@@H](C)[C@@H]1CC[C@]2(C)C3=C(CC[C@@]12C)[C@@]1(C)CC[C@H](O)C(C)(C)[C@@H]1CC3,sulforhodamine / absorbance,ASK (Atlantic salmon kidney),>50 µM
O=C1c2ccccc2C(=O)c2sc(Nc3ccccc3C(F)(F)F)nc21,,VERO,8 µg/mL
COC(=O)/C(C)=C/C=C/[C@@H](C)[C@H]1CC[C@@]2(C)C3CC[C@H]4C(C)(C)C(=O)CC[C@]4(C)[C@@]3(O)CC[C@]12C,,P-388,>40 µM
COc1ccc(-c2cc(OC)c(O)c(OC)c2O)cc1,sulforhodamine / absorbance,HT-29,>50 µM
Cc1cn([C@H]2C[C@H](N=[N+]=[N-])[C@@H](CO)O2)c(=O)[nH]c1=O,luminescence,MT4-GFP,>8.4 µM
COC(=O)/C(C)=C/C=C/[C@@H](C)C1CC[C@@]2(C)[C@@H]3CC[C@H]4C(C)(C)C(=O)CC[C@]4(C)C3=CC[C@]12C,,P-388,32.99 µM
c1cc(CN2CCCNCCNCCCNCC2)ccc1CN1CCCNCCNCCCNCC1,MTT / absorbance,PM1,>50 µM
C#CCNC1=C(C)C(=O)C2=C(C1=O)[C@@H](COC(N)=O)[C@@]1(OC)[C@H]3N[C@H]3CN21,,VERO,2.7 µg/mL
CCCCN(CCCC)c1cccc(C2(O)CCN(CCCC(=O)c3ccc(NC4CCCCC4)cc3)CC2)c1,,COSA5,20 µM
OC(c1cc(C23CC4CC(CC(C4)C2)C3)c2ccccc2n1)c1cccc2ccccc12,MTT / absorbance,Mouse fibroblasts,>200 µg/mL
COc1cc(-c2ccccc2)c(O)c(OC)c1O,sulforhodamine / absorbance,P-388,>50 µM
C[C@@H]1[C@@H](NC(=O)/C=C/C=C/c2ccc3c(c2)OCO3)C[C@@H](C)C(C)(C)[C@H]1C,MTT,HEK293T,249.8 µM
O=Nc1c(-c2c(O)[nH]c3ccccc23)[nH]c2ccccc12,trypan blue,U1,>16 µM
CC(C)(C)NC(=O)N1CC=C(c2ccccc2)C1=O,MTT / absorbance,U-937,529 µM
C[C@H]1O[C@@H](O[C@H]2[C@@H](O)C[C@H](O[C@H]3CC[C@@]4(C)[C@H](CC[C@@H]5[C@@H]4C[C@@H](O)[C@]4(C)[C@@H](C6=CC(=O)OC6)CC[C@]54O)C3)O[C@@H]2C)C[C@H](O)[C@@H]1O,MTT,GMK AH1,285 µM
[2H][C@@]1(O)C[C@H](n2cc(F)c3c(N)ncnc32)O[C@]1(C#C)CO,luminescence,MT4-GFP,>42 µM
CCCCNc1cccc(C2(O)CCN(CCCC(=O)c3ccc(F)cc3)CC2)c1,,COSA5,140 µM
COc1cc2oc(=O)c(-c3ccc(O)cc3O)cc2c(OC)c1CC=C(C)C,WST,Huh7.5,25 µg/mL
CCCNc1nc2c(s1)c1c(O)c3c(O)c(C)c4c(c32)C(=O)[C@@](C)(O/C=C/[C@H](OC)[C@@H](C)[C@@H](OC(C)=O)[C@H](C)[C@H](O)[C@H](C)[C@@H](O)[C@@H](C)/C=C/C=C(/C)C(=O)N1)O4,,VERO,>10 µg/mL
[2H][C@]1(O)C[C@H](n2cnc3c(N)nc(F)nc32)O[C@]1(C#C)CO,luminescence,MT4-GFP,>42 µM
COc1cccc2oc([N+](=O)[O-])cc12,,VERO,9.28 µg/mL
C[C@]1(C(=O)O)CC[C@]2(C)CC[C@]3(C)C(=CC(=O)[C@@H]4[C@@]5(C)CC[C@H](O[C@H]6O[C@H](C(=O)O)[C@@H](O)[C@H](O)[C@H]6O[C@@H]6O[C@H](C(=O)O)[C@@H](O)[C@H](O)[C@H]6O)[C@](C)(CO)[C@@H]5CC[C@]43C)[C@@H]2C1,WST,Huh7.5,>30 µg/mL
Cl.F/C(COc1ccc2c(c1)[nH]c1ccccc12)=C1/CN2CCC1CC2,XTT,Huh-7.5.1-8,>1.5 µM